Results of unrelated studies side by side (data: NIAID ChemDB).

Shared fields: enzyme or target tests; organism: HIV-1; protein: Reverse transcriptase; measure: IC50

Conditions beyond the fields shown may differ between rows. ICn: concentration for n% inhibition. Blank or dashed fields: not listed here. Two numbers with a dash give a range or band.

| structure | strain or isolate | changes | read by | result |
|---|---|---|---|---|
| CC(C)Nc1cccnc1N1CCN(C(=O)c2cc3ccccc3[nH]2)CC1 |  |  | nucleotide incorporation | <100 µM |
| CCCCC#CC1(C(F)(F)F)OC(=O)Nc2cccc(F)c21 |  |  |  | 0.156 µM |
| CC(C)Nc1cccnc1N1CCN(C(=O)c2cc3cc(OCc4ccccc4)ccc3[nH]2)CC1 |  |  | nucleotide incorporation | <100 µM |
| NS(=O)(=O)c1ccc(NC(=O)CSc2nnc(Br)n2-c2ccc3c4c(cccc24)CC3)c(Cl)c1 |  | RT-Y181C | nucleotide incorporation / radiometric | <0.05 µM |
| Cc1cn(C2OC(CO[Si](C)(C)C(C)(C)C)C3(OS(=O)(=O)C=C3N)C2O[Si](C)(C)C(C)(C)C)c(=O)n(CC2CO2)c1=O |  |  | nucleotide incorporation | 2.4 µM |
| CCN1c2ncc(CCOc3ccc(-c4ccc(C(O)C(=O)O)cc4)cc3C)cc2C(=O)N(C)c2cccnc21 | IIIB | RT-K103N Y181C | nucleotide incorporation / radiometric | <0.05 µM |
| CNS(=O)(=O)c1ccc(NC(=O)CSc2nnc(C(F)F)n2-c2ccc(C)c3c2CCCC3)c(Cl)c1 |  | RT-Y181C | nucleotide incorporation / radiometric | <0.05 µM |
| C=C(C)[C@@H]1CC[C@]2(CO)CC[C@]3(C)[C@H](CC[C@@H]4[C@@]5(C)CC[C@H](O)C(C)(C)[C@@H]5CC[C@]43C)[C@@H]12 |  |  | nucleotide incorporation | 14 µM |
| CCc1ccc(-n2c(Br)nnc2SCC(=O)Nc2ccc(C(=O)NCC(C)O)cc2Cl)c2ccccc12 |  | RT-Y188L | nucleotide incorporation / radiometric | 0.05–0.1 µM |
| CC1=C[C@H](O)[C@@]2(C)C(C3CCC4[C@@]5(C)CC[C@H](O)C(C)(C)C5CC[C@@]4(C)[C@]3(C)C[C@@H]2O)[C@@H]1C |  |  | nucleotide incorporation | >45 µM |
| C=CCO/N=C/c1cc(NC(=S)c2ccoc2C)ccc1Cl |  | RT-P236L | nucleotide incorporation / radiometric | 6 µM |
| COC(=O)CCCC=C(c1cc(C)c(OC)c(C(=O)OC)c1)c1cc(C)c(OC)c(C(=O)OC)c1 |  |  | nucleotide incorporation / radiometric | <1 µM |
| CCc1ccc(-n2c(Br)nnc2SCC(=O)Nc2ccc(C(=O)O)cc2Cl)c2ccccc12 |  | RT-Y181C | nucleotide incorporation / radiometric | <0.05 µM |
| Cc1cn(C2OC(CO[Si](C)(C)C(C)(C)C)C3(OS(=O)(=O)C=C3N)C2O[Si](C)(C)C(C)(C)C)c(=O)n(/C=C\CO)c1=O |  |  | nucleotide incorporation | 1.6 µM |
| O=C(CCSc1nnnn1-c1cccc2ccccc12)Nc1ccccc1[N+](=O)[O-] |  |  | nucleotide incorporation / radiometric | <2 µM |
| Cc1cc(S(N)(=O)=O)ccc1NC(=O)CSc1nnc(CF)n1-c1c(C)cc(C)c2ccccc12 |  | RT-Y188L | nucleotide incorporation / radiometric | >0.1 µM |
| Cc1occc1C(=S)Nc1ccc(Cl)c(/C=N/OC(C)(C)C)c1 |  | RT-K103N | nucleotide incorporation / radiometric | >50 µM |
| CS(=O)(=O)Nc1cccnc1N1CCN(C(=O)c2cc3ccccc3[nH]2)CC1 |  |  | nucleotide incorporation | >100 µM |
| CCN1c2ncc(CCOc3ccc(-c4nn[nH]n4)cc3C)cc2C(=O)N(C)c2cccnc21 | IIIB | RT-K103N Y181C | nucleotide incorporation / radiometric | >0.1 µM |
| CCOC(=O)[C@H](Cc1ccc(O)cc1)NC(=O)c1ccc(NC(=O)CSc2nnc(Br)n2-c2ccc(C3CC3)c3ccccc23)c(Cl)c1 |  | RT-Y181C | nucleotide incorporation / radiometric | <0.05 µM |
| CC1(C)C2CC=C3C(=CC[C@@]4(C)C5C[C@](C)(CO)CC[C@]5(C)CC[C@]34C)[C@@]2(C)CC[C@H]1O |  |  | nucleotide incorporation | 11 µM |
| CC(C)Nc1cccnc1N(C)CC(C)(C)CN(C)C(=O)c1cc2ccccc2[nH]1 |  |  | nucleotide incorporation | >100 µM |
| CCN1c2ncc(CCOc3ccc(-c4ccc(CCC(=O)O)o4)cc3)cc2C(=O)N(C)c2cccnc21 | IIIB | RT-K103N Y181C | nucleotide incorporation / radiometric | >0.1 µM |
| CC(=O)Nc1ccc2c(c1)C(C#CCC(C)C)(C(F)(F)F)OC(=O)N2 |  |  |  | >2 µM |
| Cc1ccc2[nH]c(C(=O)N3CCN(c4ncccc4NC(C)C)CC3)cc2c1 |  |  | nucleotide incorporation | <100 µM |
| Cc1cn(C2OC(CO[Si](C)(C)C(C)(C)C)C3(OS(=O)(=O)C=C3N)C2O[Si](C)(C)C(C)(C)C)c(=O)n(/C=C/CO)c1=O |  |  | nucleotide incorporation | 0.5 µM |
| O=c1[nH]c(CCc2ccccc2)cc(Nc2ccccc2)c1Br |  |  | absorbance | 12.03 µM |
| CC(C)Nc1cccnc1N1CCCN(C(=O)c2cc3ccccc3[nH]2)CC1 |  |  | nucleotide incorporation | <100 µM |
| CCc1ccc(-n2c(Br)nnc2SCC(=O)Nc2ccc(C(=O)NCCN(C)C)cc2Cl)c2ccccc12 |  | RT-Y188L | nucleotide incorporation / radiometric | >0.1 µM |
| Cc1cn([C@H]2C[C@H](N=[N+]=[N-])[C@@]3(COP(=O)(O)OP(=O)(O)OP(=O)(O)O)CC23)c(=O)[nH]c1=O | BH10 |  |  | ~0.001 µM |
| Cc1ccc(-n2nnnc2SCC(=O)Nc2ccccc2Cl)cc1 |  |  | nucleotide incorporation / radiometric | <2 µM |
| O=C(CSc1nnc(Br)n1-c1ccc(C2CCC2)c2ccccc12)Nc1ccc(C(=O)O)cc1Cl |  | RT-Y188L | nucleotide incorporation / radiometric | >0.1 µM |
| Cc1occc1C(=S)Nc1ccc(Cl)c(C(=O)OCC2CC2)c1 |  |  | nucleotide incorporation / radiometric | 6 µM |
| CCc1ccc(-n2c(Br)nnc2SCC(=O)Nc2ccc(C(=O)NCC3CCCCC3)cc2Cl)c2ccccc12 |  | RT-Y188L | nucleotide incorporation / radiometric | >0.1 µM |
| C/C(=C\CC/C(C)=C/CCc1ccoc1)C/C=C/C1=CCC(=O)OC1 |  |  | nucleotide incorporation / radiometric | 3.2 µM |
| CCNC(=O)c1ccc(NC(=O)CSc2nnc(Br)n2-c2ccc(CC)c3ccccc23)c(Cl)c1 |  | RT-Y188L | nucleotide incorporation / radiometric | >0.1 µM |
| CCNc1cccnc1N1CCN(C(=O)c2cc3ccccc3[nH]2)CC1 |  |  | nucleotide incorporation | <100 µM |
| CC(C)=CCC[C@@](C)(O)C1CC[C@]2(C)C1CC[C@@H]1[C@@]3(C)CC[C@H](O)C(C)(C)[C@@H]3CC[C@]12C |  |  | nucleotide incorporation | >45 µM |
| CCc1ccc(-n2c(Br)nnc2SCC(=O)Nc2ccc(C(=O)O)cc2C)c2ccccc12 |  | RT-Y188L | nucleotide incorporation / radiometric | >0.1 µM |
| CC1=CC[C@@]2(C)[C@@H]([C@@H]1C)[C@H]1CCC3[C@@]4(C)CC[C@H](O)C(C)(C)[C@@H]4CC[C@@]3(C)[C@]1(C)C[C@@H]2O |  |  | nucleotide incorporation | >45 µM |
| Cc1cc(S(N)(=O)=O)ccc1NC(=O)CSc1nnc(Br)n1-c1ccc(C2CCC2)c2ccccc12 |  | RT-Y181C | nucleotide incorporation / radiometric | <0.05 µM |
| CCN1c2ncc(CCOc3ccc(-c4ccc(O)cc4)cc3C)cc2C(=O)N(C)c2cccnc21 | IIIB |  | nucleotide incorporation / radiometric | <0.05 µM |
| CCOn1c(C)nc2c(C)cccc21 |  |  |  | 34.8 µM |
| O=C(CSc1nnnn1-c1ccccc1Br)Nc1ccccc1[N+](=O)[O-] |  |  | nucleotide incorporation / radiometric | <2 µM |
| CCc1ccc(-n2c(Br)nnc2SCC(=O)Nc2ccc(C(=O)N[C@H](C(=O)OC)C(C)C)cc2Cl)c2ccccc12 |  |  | nucleotide incorporation / radiometric | 0.05–0.1 µM |
| CCCC#CC1(C(F)(F)F)OC(=O)Nc2ccc(N)cc21 |  |  |  | 1.894 µM |
| NC(=O)c1ncn(C2CCCC2)c1N |  |  |  | >100 µM |
| CCc1ccc(-n2c(CF)nnc2SCC(=O)Nc2ccc(C(=O)O)cc2Cl)c2ccccc12 |  |  | nucleotide incorporation / radiometric | <0.05 µM |
| CC(C)=CCC[C@@H](C)[C@@H]1CC[C@]2(C)C3=CC[C@H]4C(C)(C)[C@@H](O)CC[C@]4(C)C3=CC[C@@]12C |  |  | nucleotide incorporation | 3.3 µM |
| CC(C)Nc1nccnc1N1CCN(C(=O)c2cc3cc(F)ccc3[nH]2)CC1 |  |  | nucleotide incorporation | <100 µM |
| Cc1ccc(-n2nnnc2SCC(=O)Nc2ccccc2Cl)c([N+](=O)[O-])c1 |  |  | nucleotide incorporation / radiometric | <2 µM |
| Cc1cc(C2CC2)cc(Cl)c1-n1c(Br)nnc1SCC(=O)Nc1ccc(S(N)(=O)=O)cc1Cl |  |  | nucleotide incorporation / radiometric | <0.05 µM |
| O=C(CSc1nnnn1-c1ccccc1-c1ccccc1)Nc1ccccc1Cl |  |  | nucleotide incorporation / radiometric | <2 µM |
| NS(=O)(=O)c1ccc(NC(=O)CSc2nnc(C(F)F)n2-c2ccc(C3CCC3)c3ccccc23)c(Cl)c1 |  | RT-Y181C | nucleotide incorporation / radiometric | <0.05 µM |
| O=C(c1cc2ccccc2[nH]1)N1CCN(c2ncccc2NCc2ccccc2)CC1 |  |  | nucleotide incorporation | >100 µM |
| CCc1ccc(-n2c(SCC(=O)Nc3ccc(S(N)(=O)=O)cc3C)nnc2C(F)F)c2ccccc12 |  |  | nucleotide incorporation / radiometric | <0.05 µM |
| Cc1cc(C)c(-n2nnnc2SCC(=O)Nc2ccccc2N)c(C)c1 |  |  | nucleotide incorporation / radiometric | <2 µM |
| CCc1ccc(-n2c(Br)nnc2SCC(=O)Nc2ccc(C(=O)N3CCC(CN)CC3)cc2Cl)c2ccccc12 |  | RT-Y188L | nucleotide incorporation / radiometric | >0.1 µM |
| C=C1CC[C@@]2(C)[C@@H]([C@@H]1C)[C@H]1CCC3[C@@]4(C)CC[C@H](O)C(C)(C)[C@@H]4CC[C@@]3(C)[C@]1(C)C[C@@H]2O |  |  | nucleotide incorporation | 20 µM |

For reference, 8 entries again:

structure | strain or isolate | changes | read by | result
Cc1cn([C@H]2C[C@H](N=[N+]=[N-])[C@@]3(COP(=O)(O)OP(=O)(O)OP(=O)(O)O)CC23)c(=O)[nH]c1=O | BH10 |  |  | ~0.001 µM
CC1(C)C2CC=C3C(=CC[C@@]4(C)C5C[C@](C)(CO)CC[C@]5(C)CC[C@]34C)[C@@]2(C)CC[C@H]1O |  |  | nucleotide incorporation | 11 µM
O=C(CSc1nnnn1-c1ccccc1-c1ccccc1)Nc1ccccc1Cl |  |  | nucleotide incorporation / radiometric | <2 µM
C/C(=C\CC/C(C)=C/CCc1ccoc1)C/C=C/C1=CCC(=O)OC1 |  |  | nucleotide incorporation / radiometric | 3.2 µM
CCOn1c(C)nc2c(C)cccc21 |  |  |  | 34.8 µM
CC1=CC[C@@]2(C)[C@@H]([C@@H]1C)[C@H]1CCC3[C@@]4(C)CC[C@H](O)C(C)(C)[C@@H]4CC[C@@]3(C)[C@]1(C)C[C@@H]2O |  |  | nucleotide incorporation | >45 µM
CC(C)Nc1cccnc1N(C)CC(C)(C)CN(C)C(=O)c1cc2ccccc2[nH]1 |  |  | nucleotide incorporation | >100 µM
CC1=C[C@H](O)[C@@]2(C)C(C3CCC4[C@@]5(C)CC[C@H](O)C(C)(C)C5CC[C@@]4(C)[C@]3(C)C[C@@H]2O)[C@@H]1C |  |  | nucleotide incorporation | >45 µM